Measured values from several laboratories, pooled; numbers as filed in NIAID ChemDB.

All rows: tests in culture; agent: HIV-1

An empty or dashed field is not shown.

SMILES	strain or isolate	cell line	measure	mutations	read by	value
CNc1nc(Nc2ccc(C#N)cc2)nc(Oc2ccc3ccccc3c2)c1C	IIIB	MT-4	EC50	K103N + Y181C	MTT	>178 µM
CN1C(c2cccc(C(F)(F)F)c2)c2ccccc2S1(=O)=O			EC50		p24 / RT activity	0.653 µM
Cc1ccc(C)c(CS(=O)c2ccc(Cl)c[n+]2[O-])c1	IIIB	CEM	EC50	RT-L100I	syncytia	4.6 µg/mL
O=C(O)CN(CCCN(CCN(CC(=O)O)CC(=O)O)Cc1cnc2c(O)cccc2c1)CC(=O)O	B-92US026 Primary isolate	PBMC	EC50		RT activity	30 µM
NCCS		CEM-SS	EC50			>100 µM
CCCCn1cc(N)c(=O)c2cnc(-c3ccncc3)nc21	IIIB	H9	EC50		p24 / trypan blue	3.5 µM
O=Cc1coc2ccc(F)cc2c1=O	IIIB	HTLV-I-bearing MT-4	EC50		MTT	>40 µg/mL
COc1ccc([C@@H]2CC(=O)c3c(O)cc(O[C@@H]4O[C@H](CO[C@@H]5O[C@@H](C)[C@H](OP(=O)(O)O)[C@@H](OP(=O)(O)O)[C@H]5O)[C@@H](OP(=O)(O)O)[C@H](OP(=O)(O)O)[C@H]4O)cc3O2)cc1O	IIIS	MT-2	EC50		syncytia	2.8 µg/mL
CC1(C)CC(=O)C(S(=O)(=O)N(CC2CCCC2)C[C@@H](O)CN(CCc2ccccc2)C(=O)c2ccccc2)C(=O)S1(=O)=O	IIIB	CEM	EC90		p24	1 µM
CCN(CC)C(=S)SSC(=S)N(CC)CC		CEM-SS	EC50		p24	>100 µM
Cc1cc(S(N)(=O)=O)ccc1NC(=O)COc1ccc(F)cc1Oc1ccc2cc(C#N)ccc2c1Br	A17		EC50			0.181 µM
Cn1ccc(=O)c2cnc(-c3ccncc3)nc21	IIIB	H9	EC50		p24 / trypan blue	55 µM
Cc1ccc(C)c(CS(=O)(=O)c2cccc[n+]2[O-])c1	IIIB	CEM	EC50	RT-L100I	syncytia	10 µg/mL
Cc1cc(Nc2nc(N)c3cccc(-c4c(C)cc(/C=C/C#N)cc4C)c3n2)ncc1C#N	HXB2	MT-4	EC50	K103N	cytopathic effect / luminescence	0.0303 µM
N#CC1=CC2Nc3ccccc3C2N(c2ccc([N+](=O)[O-])cc2)C1=O	7324-1	HeLa	EC50		GFP / fluorescence	0.01 µM
CCc1c(NC)nc(Nc2ccc(C#N)cc2)nc1Oc1ccc2cc(C#N)ccc2c1	IIIB	MT-4	EC50	WT	MTT	0.006 µM
O=C(O)c1cc2ccccc2oc1=O	IIIB	HTLV-I-bearing MT-4	EC50		MTT	>1000 µg/mL
COc1cc(N=Nc2cc(S(=O)(=O)O)cc3cc(S(=O)(=O)O)cc(O)c23)c(C)cc1NC(=O)Nc1cc(C)c(N=Nc2cc(S(=O)(=O)O)cc3cc(S(=O)(=O)O)cc(O)c23)cc1OC	LAV-BR	PBL	EC50		RT activity	<100 µM
CNc1nc(Nc2ccc(C#N)cc2)nc(Oc2ccc3cc(C#N)ccc3c2)c1C(C)C	IIIB	MT-4	EC50	WT	MTT	0.008 µM
CC(C)c1ccc2occ(C=O)c(=O)c2c1	IIIB	HTLV-I-bearing MT-4	EC50		MTT	>40 µg/mL
COc1c(C(=O)C(=O)N2CCN(C(=O)c3ccccc3)CC2)cnc2c1c(C)nn2C		HeLa	EC50		luciferase / reporter gene	1–5 µM
CCc1c(NC)nc(Nc2ccc(C#N)cc2)nc1Oc1ccc2ccccc2c1Br	IIIB	MT-4	EC50	WT	MTT	0.024 µM
O=Cc1coc2c(Br)cc(Br)cc2c1=O	IIIB	HTLV-I-bearing MT-4	EC50		MTT	>200 µg/mL
COc1ccc(S(=O)(=O)N(CC(C)C)C[C@@H](O)C[C@@H](CNCC(C)C)Cc2ccccc2)cc1	IIIB	CEM	EC90		p24	1 µM
O=c1ccoc2ccccc12	IIIB	HTLV-I-bearing MT-4	EC50		MTT	>200 µg/mL
Cc1cc(C)c(CS(=O)c2cccc[n+]2[O-])c(C)c1	IIIB	CEM	EC50	RT-Y181C	syncytia	10 µg/mL
CCc1c(NC)nc(Nc2ccc(C#N)cc2)nc1Oc1ccc2cc(C#N)ccc2c1Br	IIIB	MT-4	EC50	K103N + Y181C	MTT	2.9 µM
COc1ccc(S(=O)(=O)N(CC2CCCC2)C[C@@H](O)CN(CCc2ccccc2)C(=O)c2cccc(O)c2C)cc1	IIIB	CEM	EC50		p24	<0.1 µM
CCCCN1C(c2cccc(Cl)c2)c2ccccc2S1(=O)=O			EC50		p24 / RT activity	1.35 µM
CC1CN(C(=O)c2ccccc2)CCN1C(=O)C(=O)c1cc2cc(F)ccc2[nH]1		HeLa	EC50		luciferase / reporter gene	<1 µM
O=Cc1coc2ccc(Cl)cc2c1=O	IIIB	HTLV-I-bearing MT-4	EC50		MTT	>40 µg/mL
N#Cc1ccc(Nc2nccc(Oc3cc4ccc(Br)cc4cc3Br)n2)cc1	IIIB	MT-4	EC50	K103N + Y181C	MTT	>50.39 µM
CCn1ccc(=O)c2cnc(-c3ccncc3)nc21	IIIB	H9	EC50		p24 / trypan blue	12.1 µM
O=C(NC(Cc1ccccc1)C(=O)C(=O)C(=O)N(CC1CCCC1)S(=O)(=O)c1ccccc1)OC1COCOC1	IIIB	CEM	EC50		p24	<1 µM
COc1ccc2cc(C(=O)C(=O)N3CCN(C(=O)c4ccccc4)CC3C)[nH]c2c1		HeLa	EC50		luciferase / reporter gene	<1 µM
CC(=O)c1c(C)nc(-c2ccccc2)nc1NC(=O)c1ccccc1	2AG	HeLa	EC50		GFP / fluorescence	>50 µM
O=C(CC1CNc2cccc(F)c21)N1CCN(C(=O)c2ccccc2)CC1		HeLa	EC50		luciferase / reporter gene	<1 µM
Cc1ccc(C)c(C2c3ccccc3S(=O)(=O)N2C)c1			EC50		p24 / RT activity	0.512 µM
CCOC(=O)c1c[nH]c2ccc(C(=O)C(=O)N3CCN(C(=O)c4ccccc4)C[C@H]3C)cc12		HeLa	EC50		luciferase / reporter gene	1–5 µM
CC(C)CC(NS(=O)(=O)c1ccccc1)C(F)(F)C(=O)[C@H](Cc1ccccc1)NC(=O)O[C@H]1CCOC1	IIIB	CEM	EC50		p24	<1 µM
O=c1cc[nH]c2nc(-c3ccncc3)ncc12	IIIB	H9	EC50		p24 / trypan blue	60 µM

A second listing of 4 rows from above:

SMILES	strain or isolate	cell line	measure	mutations	read by	value
Cc1ccc(C)c(C2c3ccccc3S(=O)(=O)N2C)c1			EC50		p24 / RT activity	0.512 µM
CC(C)c1ccc2occ(C=O)c(=O)c2c1	IIIB	HTLV-I-bearing MT-4	EC50		MTT	>40 µg/mL
CCOC(=O)c1c[nH]c2ccc(C(=O)C(=O)N3CCN(C(=O)c4ccccc4)C[C@H]3C)cc12		HeLa	EC50		luciferase / reporter gene	1–5 µM
O=c1cc[nH]c2nc(-c3ccncc3)ncc12	IIIB	H9	EC50		p24 / trypan blue	60 µM

ECn: concentration that inhibits the pathogen or its effect by n%. Neighbouring rows are from separate reports. Two numbers with a dash give a range or band.